Assay results: patent US11180744B2, “Acinetobacter lysins” (priority 2014, dated 2021)

Test system: A. baumannii strain no. 1791
Experiment: Mouse skin infection model
Settings: 200 μg of P307SQ-8C or 2 μg of polymyxin B for 2 hours; p-value=0.0023, ordinary one-way ANOVA

Polymyxin B [reference compound]
bacterial load on infected skin: reduce the bacterial load significantly
